Results on 3 molecules are retold here after article PMC7993833, “EDP-938, a novel nucleoprotein inhibitor of respiratory syncytial virus, demonstrates potent antiviral activities in vitro and in a non-human primate model” (PLoS Pathogens, 2021).

One may read the EC50 as the concentration that produces a half-maximal response.

Experiment [1] relates to RSV-A Long EDP-938 resistant clones. It counts as cell-based, respiratory syncytial virus.
In experiment [2] the test system is recombinant RSV A2-line19F, N protein mutants.
The test system is the same in experiment [3]. Put plainly: microbe, parasite or virus in culture. The following applies: human respiratory syncytial virus.
Where [4] appears, read: RSV-A Long resistant clone #1, N: Q102L, M109T, I129M, G: K205G, K213G, T219A.
Where [5] appears, read: RSV-A Long resistant clone #2, N: T29S, S134T.
[6] abbreviates: RSV-A Long resistant clone #3, N: S134T.
Setting [7] is: RSV-A Long resistant clone #4, N: V90A, S134T.
Where [8] appears, read: RSV-A Long resistant clone #5, N: M109I, G: R8H.
[9] abbreviates: RSV-A Long resistant clone #6, N: M109K.
Setting [10] is: RSV-A Long resistant clone #7, N: K136R.
Where [11] appears, read: recombinant RSV N Q102L/M109T/I129M.
Setting [12] is: HEp-2, recombinant RSV N I129L/L139I.
Where [13] appears, read: HEp-2, recombinant RSV N Q102L/I129M.
[14] abbreviates: HEp-2, recombinant RSV N Q102L/M109T.
[15] abbreviates: HEp-2, recombinant RSV N Q102L/M109T/I129M.

Like-named read-outs stand apart in the source and are kept apart here.

In the case of `O=C(Nc1ccccc1F)N[C@H]1N=C(c2ccccc2)c2ccccc2NC1=O` [RSV-604], the “EC50 Fold Change vs. WT” value in experiment [1] (RSV-A Long Wild-Type (WT)) was found to be 1 fold; in experiment [1] (setting [4]), 4.6 fold; in experiment [1] (setting [5]), 3.1 fold; in experiment [1] (setting [6]) it was 2 fold; in experiment [1] (setting [7]) it was 3.2 fold; in experiment [1] (setting [8]), 0.7 fold. Moreover, the “EC50 Fold Change vs. WT” value in experiment [1] (setting [9]) is 3.3 fold; in experiment [1] (setting [10]), 2.2 fold; in experiment [2] (recombinant RSV N I129L), 5.6 fold; in experiment [2] (recombinant RSV N I129L/L139I) it was 15.4 fold; in experiment [2] (recombinant RSV N I129M), 4.4 fold; in experiment [2] (recombinant RSV N Q102L) it was 1.2 fold. The results for the “EC50 Fold Change vs. WT” value in experiment [2] (recombinant RSV N Q102L/I129M), in experiment [2] (recombinant RSV N Q102L/M109T) and in experiment [2] (setting [11]) were 2.8 fold, 2.1 fold and 5.6 fold, respectively. The EC50 in experiment [3] (HEp-2, recombinant RSV N I129L) was found to be 6430 nM; in experiment [3] (setting [12]), 17800 nM; in experiment [3] (HEp-2, recombinant RSV N I129M), 5060 nM; in experiment [3] (HEp-2, recombinant RSV N Q102L) it was 1340 nM; in experiment [3] (setting [13]), 3230 nM; in experiment [3] (setting [14]) it was 2430 nM. Moreover, the EC50 in experiment [3] (setting [15]) was 6410 nM.
In the case of `Cc1cn2nc([C@@H]3CCCCN3C(=O)c3cc(Cl)ccc3NS(C)(=O)=O)cc2nc1N1CC[C@H](N)C1` [GS-5806], the “EC50 Fold Change vs. WT” value was 1 fold in experiment [1] (RSV-A Long Wild-Type (WT)); 0.7 fold in experiment [1] (setting [4]); 0.9 fold in experiment [1] (setting [5]); 0.8 fold in experiment [1] (setting [6]); 1.5 fold in experiment [1] (setting [7]); 1.5 fold in experiment [1] (setting [8]). Besides, the “EC50 Fold Change vs. WT” value in experiment [1] (setting [9]) is less than 0.23 fold; in experiment [1] (setting [10]), 1.2 fold; in experiment [2] (recombinant RSV N I129L), 0.9 fold; in experiment [2] (recombinant RSV N I129L/L139I), 0.8 fold; in experiment [2] (recombinant RSV N I129M), 3.2 fold; in experiment [2] (recombinant RSV N Q102L), 0.3 fold. Further, the “EC50 Fold Change vs. WT” value turned out to be 4.8 fold in experiment [2] (recombinant RSV N Q102L/I129M), 1.9 fold in experiment [2] (recombinant RSV N Q102L/M109T) and 2.3 fold in experiment [2] (setting [11]). Besides, the EC50 was found to be 0.12 ± 0.09 nM in experiment [3] (HEp-2, recombinant RSV N I129L); 0.1 ± 0.1 nM in experiment [3] (setting [12]); 0.41 ± 0.4 nM in experiment [3] (HEp-2, recombinant RSV N I129M); 0.04 nM in experiment [3] (HEp-2, recombinant RSV N Q102L); 0.63 ± 0.65 nM in experiment [3] (setting [13]); 0.25 ± 0.18 nM in experiment [3] (setting [14]). In addition, in experiment [3] (setting [15]), the EC50 came to 0.3 ± 0.26 nM.
As to `O=C1Nc2ccccc2C(c2ccccc2)=N[C@@H]1Nc1nnc(-c2ncc(C(F)(F)F)cc2N2CCOCC2)o1` [EDP-938], the “EC50 Fold Change vs. WT” value in experiment [1] (RSV-A Long Wild-Type (WT)) is on record as 1 fold; in experiment [1] (setting [4]), 60 fold; in experiment [1] (setting [5]), 3.3 fold; in experiment [1] (setting [6]), 2.6 fold; in experiment [1] (setting [7]), 3.8 fold; in experiment [1] (setting [8]), 3.1 fold. In addition, the “EC50 Fold Change vs. WT” value came to 67 fold in experiment [1] (setting [9]); 2.7 fold in experiment [1] (setting [10]); 5.1 fold in experiment [2] (recombinant RSV N I129L); 13.9 fold in experiment [2] (recombinant RSV N I129L/L139I); 3.7 fold in experiment [2] (recombinant RSV N I129M); 2.0 fold in experiment [2] (recombinant RSV N Q102L). Moreover, the entries for the “EC50 Fold Change vs. WT” value in experiment [2] (recombinant RSV N Q102L/I129M), in experiment [2] (recombinant RSV N Q102L/M109T) and in experiment [2] (setting [11]) were 2.2 fold, 2.6 fold and 42.4 fold, respectively. For the same molecule, the EC50 in experiment [3] (HEp-2, recombinant RSV N I129L) amounted to 233 ± 127 nM; in experiment [3] (setting [12]) it was 626 ± 139 nM; in experiment [3] (HEp-2, recombinant RSV N I129M) it was 170 ± 18 nM; in experiment [3] (HEp-2, recombinant RSV N Q102L), 90 ± 10 nM; in experiment [3] (setting [13]), 100 ± 6 nM; in experiment [3] (setting [14]), 116 ± 68 nM. Besides, the EC50 in experiment [3] (setting [15]) was 1930 nM; in experiment [3] (HEp-2, recombinant RSV N Q102L/M109T/I129M triple mutant) it was roughly 2000 nM.
